In this series the test system is HlyU. The series is described as follows: EMSA. The settings on record: HlyU 25-300 nM, 3 nM probe, two shifts at higher concentrations; 1x buffer: 100 mM HEPES pH 7.6, 5 mM EDTA, 50 mM (NH4)2SO4, 5 mM DTT, 1% Tween 20, 150 mM KCl; 20 min at 25 ± 2 °C; 6% DNA retardation gel; recombinant protein; residues 1-97; protein details: N-terminal His6 (pProEx-HTb); label: 32P; probe letters rebuilt from the primers and the genome. Background: A gel shift assay detects complexes by their altered migration in electrophoresis.

Construct, isoform or probe ends are uncertain for at least one entry.

Regarding “TCAAAAACGCTGCAATAAACATCGGCTAAGTAATTTAATTATGTCCAACAATGAAGGGTTGACGCTGATATGTATTCACTTTTATTTAAGTATCATCAGCGGTAATAGAGAACAATTTAAAGAAAATGCTAATTTAACAAAAACTAATAATTACAAAGATGAACTCGAAAAAATACAAAAAGCAAACAAAGTAAGAATAACCACAAAACATTCACAATTTAAAAACATAGAGAAAATAAAAACACCCGCCATTTTATTTGA (double strand) [PrtxA1 261 bp probe]”, the binding result was “binds”.

(Values after publication PMC6099652.)
